Results of unrelated studies side by side (data: NIAID ChemDB).

Shared fields: whole-cell or culture tests; species: HIV-1; read by: cytopathic effect / MTT; endpoint: EC50

Neighbouring rows are from separate reports. Blank or dashed fields: not listed here. Two numbers with a dash give a range or band. ECn: concentration that inhibits the pathogen or its effect by n%.

| structure | strain or isolate | cells | value |
|---|---|---|---|
| CCCCCCCCCCCC(=O)O[C@@]12C[C@@H](C)[C@]34C=C(C)[C@H](O)[C@@]3(O)[C@H](O)C(COCc3ccccc3)=C[C@H](C4=O)[C@@H]1C2(C)C | - | MT-4 | 0.03 µg/mL |
| Nc1nc2nn(CCOCP(=O)(O)O)nc2c(=O)[nH]1 | - | MT-4 | >315 µM |
| CCCCCCCCCCc1ccc2c(c1)N(C)[C@H](C(C)C)C(=O)N[C@H](CO)C2 | IIIB | MT-4 | 0.1 µg/mL |
| CC(C)CNC(=O)C(F)(F)C(=O)[C@H](Cc1ccc(OCc2ccccc2)cc1)NC(=O)[C@@H](NC(=O)OCc1ccccc1)C(C)C | RF | MT-4 | 0.32 µM |
| CCn1cc(C(=O)O)c(=O)c2cc(F)c(N3CCN(c4ccccc4OC)CC3)c(OC(F)F)c21 | IIIB | MOLT-4 | 0.061 µM |
| Cc1nn(-c2ccccc2)c2c1nnn2C(=O)NC(C)(C)C | - | MT-4 | >200 µM |
| CCOCn1c2c(c(=O)[nH]c1=O)Nc1ccc(Cl)cc1S2 | - | MT-4 | 1.4 µg/mL |
| C=COC(=O)OC[C@H]1O[C@@H](n2cc(C)c(=O)[nH]c2=O)C[C@@H]1N=[N+]=[N-] | IIIB | MT-4 | 0.009 µM |
| CC(C)[C@H](NC(=O)N(C)Cc1ccccn1)C(=O)N[C@@H](Cc1ccccc1)[C@H](O)[C@H](O)[C@H](Cc1ccccc1)NC(=O)[C@@H](NC(=O)N(C)Cc1ccccn1)C(C)C | MN | MT-4 | 0.12 µM |
| CCCc1cc(=O)oc2c3c(c4c(c12)OC(C)(C)C=C4)O[C@@H](C)[C@H](C)[C@H]3O | A-17 (TIBO-RS) | MT-2 | >0.2 µM |
| CCOCn1c2c(c(=O)[nH]c1=O)Nc1ccccc1S2 | - | MT-4 | 6.9 µg/mL |
| CNc1nc2c(o1)c(C)nn2-c1ccccc1 | - | MT-4 | >31 µM |
| Cc1cn([C@H]2C[C@H](N=[N+]=[N-])[C@@H](CO)O2)c(=O)[nH]c1=O | IIIB | MT-4 | 0.0042 µg/mL |
| COC(=O)[C@@H](NC(=O)Cc1ccccc1)[C@@H]1N[C@@H](C(=O)NCCNC(=O)[C@@H]2N[C@@H]([C@H](NC(=O)Cc3ccccc3)C(=O)OC)SC2(C)C)C(C)(C)S1 | IIIB | MT-4 | >100 µg/mL |
| CCOC(=O)CNC(=O)n1nnc2c(C)nn(-c3ccccc3)c21 | - | MT-4 | >122 µM |
| Cc1ccnc2c1NC(=O)c1cccnc1N2C1CC1 | LAI | MT-4 | 0.032 µM |
| CC(C)=CCN1Cc2cc(Cl)cc3[nH]c(=S)n(c23)C[C@@H]1C | ED | CEM + CEM-SS | 0.009 µM |
| CCCNC(=O)/N=C1\C(=[N+]=[N-])C(C)=NN1c1ccccc1 | - | MT-4 | >77 µM |
| CC(C)[C@H]1C(=O)N[C@H](CO)Cc2ccccc2N1C | IIIB | MT-4 | 0.3 µg/mL |
| CC(C)[C@H](NC(=O)OCc1ccccc1)C(=O)N[C@@H](Cc1ccccc1)[C@@H](O)[C@H](O)[C@H](Cc1ccccc1)NC(=O)[C@@H](NC(=O)OCc1ccccc1)C(C)C | IIIB | MT-4 | 0.02–0.4 µM |
| CC(C)[C@H]1C(=O)N[C@H](CO)Cc2c[nH]c3cccc(c23)N1C | IIIB | MT-4 | 0.013 µg/mL |
| Cc1cn([C@H]2C[C@H](N=[N+]=[N-])[C@@H](COC(=O)CCC(=O)OC[C@H]3O[C@@H]4O[C@H]5[C@H](O)[C@@H](O)[C@@H](O[C@H]6[C@H](O)[C@@H](O)[C@@H](O[C@H]7[C@H](O)[C@@H](O)[C@@H](O[C@H]8[C@H](O)[C@@H](O)[C@@H](O[C@H]9[C@H](O)[C@@H](O)[C@@H](O[C@H]%10[C@H](O)[C@@H](O)[C@@H](O[C@H]3[C@H](O)[C@H]4O)O[C@@H]%10CO)O[C@@H]9CO)O[C@@H]8CO)O[C@@H]7CO)O[C@@H]6CO)O[C@@H]5CO)O2)c(=O)[nH]c1=O | IIIB | MT-4 | 0.018 µg/mL |
| CCCc1cc(=O)oc2c3c(c4c(c12)OC(C)(C)C=C4)O[C@@H](C)C(C)=C3 | IIIB | CEM + CEM-SS | >24.7 µM |
| NOCc1c(Cl)cccc1Cl | IIIB | MT-4 | 1.67 µg/mL |
| CCn1cc(C(=O)O)c(=O)c2cc(F)c(N3CCN(c4ncccn4)CC3)c(OC(F)F)c21 | IIIB | MT-4 | 0.61 µM |
| CCCCCCCCCCc1ccc2c(c1)N(C)[C@H](C(C)C)C(=O)N[C@@H](CO)C2 | IIIB | MT-4 | 0.1 µg/mL |
| Cc1nn(-c2ccccc2)c2nc(NC(C)(C)C)oc12 | - | MT-4 | >18 µM |
| NOCc1cccc(Cl)c1Cl | IIIB | MT-4 | 8.99 µg/mL |
| CCCCCCCCCCCC(=O)O[C@@]12C[C@@H](C)[C@]34C=C(C)[C@@H]5OC(=O)O[C@@]53[C@H](O)C(COC(=O)OC)=C[C@H](C4=O)[C@@H]1C2(C)C | - | MT-4 | 0.064 µg/mL |
| Cc1nn(C)c2c1nnn2Cc1ccccc1 | - | MT-4 | >200 µM |
| CC(C)[C@H](NC(=O)OCc1ccccc1)C(=O)N[C@@H](Cc1ccccc1)C(O)[C@H](Cc1ccccc1)NC(=O)[C@@H](NC(=O)OCc1ccccc1)C(C)C | IIIB | MT-4 | 0.02–0.4 µM |
| Cc1cn([C@H]2C[C@H](N=[N+]=[N-])[C@@H](CO)O2)c(=O)[nH]c1=O | IIIB | MT-4 | 0.0022 µM |
| C1CNCCNCCCN(CCCN2CCCNCCNCCCNCC2)CCNC1 | JM2763-resistant (gp120 S274R Q278H I288V A297T) | MT-4 | 127.5 µg/mL |
| CCCCCCCCCCc1ccc2c(c1)N(C)[C@@H](C(C)C)C(=O)N[C@H](CO)CC2 | IIIB | MT-4 | 2.5–5 µg/mL |
| Nc1ccn([C@H]2CC[C@@H](CO)O2)c(=O)n1 | H112-2 | MT-2 | 0.32 µM |
| Nc1ncnc2nnn(CCOCP(=O)(O)O)c12 | - | MT-4 | >365 µM |
| CC(C)[C@H]1C(=O)N[C@H](CO)CCc2ccccc2N1C | IIIB | MT-4 | >10 µg/mL |
| Nc1nc2c(ncn2CCOCP(=O)(O)O)c(=O)[nH]1 | - | MT-4 | 0.19 µM |
| O=c1[nH]c(=O)n(COCCO)c2c1Nc1ccccc1S2 | - | MT-4 | 23 µg/mL |
| CCOP(=O)(O)COCCn1nnc2c(N)ncnc21 | - | MT-4 | >331 µM |
| Cc1cn([C@@H]2C[C@@H](N=[N+]=[N-])[C@H](COC(=O)OC[C@H]3O[C@@H](n4cc(C)c(=O)[nH]c4=O)C[C@@H]3N=[N+]=[N-])O2)c(=O)[nH]c1=O | IIIB | MT-4 | 0.0028 µM |
| CCCCCCCCCCCC(=O)O[C@@]12C[C@@H](C)[C@]34C=C(C)[C@H](OC(=O)c5ccccc5)[C@@]3(O)[C@H](O)C(CO)=C[C@H](C4=O)[C@@H]1C2(C)C | - | MT-4 | 0.00021 µg/mL |